IC50 data for one compound are collected here from publication PMC4484626, “Characteristics of oseltamivir-resistant influenza A (H1N1) pdm09 virus during the 2013–2014 influenza season in Mainland China” (Virology Journal, 2015).

The assay deals with NA of A/California/07/2009 (275H) (Influenza A virus (A/California/07/2009(H1N1)), UniProt C3W6G3). To be noted: read-out: IC50 (nM) / Oseltamivir; fluorogenic substrate of NA-Fluor kit; table prints oseltamivir, tested as carboxylate; reference mean.

Take `CCC(CC)O[C@@H]1C=C(C(=O)O)C[C@H](N)[C@H]1NC(C)=O` [Oseltamivir carboxylate]: the IC50 came out at 0.3 nM.
